A mixed list of measured activities; the numbers were collected in NIAID ChemDB.

Common to all: growth or infection tests; agent: HIV-1; cell line: ATH8; read-out: inhibition

Rows are shuffled and stem from different studies.

SMILES,strain or isolate,read by,dose,value
O=c1[nH]cnc2c1ncn2[C@H]1CC[C@@H](CO)O1,IIIB,cytopathic effect / trypan blue,10 µM,97%
OC[C@@H]1CC[C@H](n2cnc3c(Br)ncnc32)O1,IIIB,cytopathic effect / trypan blue,20 µM,80%
Nc1nc2c(ncn2C/C=C/CO)c(=O)[nH]1,IIIB,cytopathic effect / trypan blue,200 µM,8%
CNc1ncnc2c1ncn2[C@@H]1C[C@H](CO)[C@H]1CO,IIIB,cytopathic effect / trypan blue,500 µM,14%
O=c1[nH]cnc2c1ncn2C=C=CCO,IIIB,cytopathic effect / trypan blue,1000 µM,2%
OC[C@@H]1CC[C@H](n2cnc3cncnc32)O1,IIIB,cytopathic effect / trypan blue,200 µM,3%
Nc1nc2c(ncn2CC#CCO)c(=O)[nH]1,IIIB,cytopathic effect / trypan blue,100 µM,0%
Nc1ccn([C@H]2CC[C@@H](CO)O2)c(=O)n1,IIIB,cytopathic effect / trypan blue,0.2 µM,100%
Nc1ncnc2c1ncn2[C@@H]1O[C@H](CO)[C@@H](O)[C@@H]1O,LAV Laboratory strain,cytopathic effect,1 µg/mL,10%
OC[C@H]1O[C@@H](n2cnc3c2NC=NC[C@H]3O)C[C@@H]1O,-,cytopathic effect,0.02 µM,0%
Nc1nc(=S)c2ncn([C@H]3CC[C@@H](CO)O3)c2[nH]1,IIIB,cytopathic effect / trypan blue,2 µM,6%
Nc1ncnc2c1ncn2[C@@H]1C[C@H](CO)[C@H]1CO,IIIB,cytopathic effect / trypan blue,100 µM,76%
Cc1cn([C@H]2C[C@H](N=[N+]=[N-])[C@@H](CO)O2)c(=O)[nH]c1=O,IIIB,cytopathic effect / trypan blue,1 µM,100%
Nc1ncnc2c1ncn2[C@@H]1O[C@H](CO)[C@H]1CO,IIIB,cytopathic effect / trypan blue,100 µM,77%
Nc1ncnc2c1ncn2[C@H]1CC[C@@H](CO)O1,IIIB,cytopathic effect / trypan blue,20 µM,100%
Nc1nc2c(ncn2C=C=CCO)c(=O)[nH]1,IIIB,cytopathic effect / trypan blue,500 µM,0%
Cc1cn([C@@H]2C[C@H](CO)[C@H]2CO)c(=O)[nH]c1=O,IIIB,cytopathic effect / trypan blue,500 µM,0%
Nc1ncnc2c1ccn2[C@@H]1O[C@H](CO)[C@@H](O)[C@H]1O,LAV Laboratory strain,cytopathic effect,5 µg/mL,0%
Nc1nc2c(ncn2[C@H]2CC[C@@H](CO)O2)c(=O)[nH]1,IIIB,cytopathic effect / trypan blue,10 µM,100%
NC(=O)c1[nH]nc([C@@H]2O[C@H](CO)[C@@H](O)[C@H]2O)c1O,LAV Laboratory strain,cytopathic effect,100 µg/mL,0%
Nc1ncnc2c1ncn2CCCCO,IIIB,cytopathic effect / trypan blue,100 µM,16%
Nc1nc2c(nc(Br)n2[C@@H]2C[C@H](CO)[C@H]2CO)c(=O)[nH]1,IIIB,cytopathic effect / trypan blue,100 µM,12%

A second listing of 2 rows from above:

SMILES | strain or isolate | read by | dose | value
Nc1ccn([C@H]2CC[C@@H](CO)O2)c(=O)n1 | IIIB | cytopathic effect / trypan blue | 0.2 µM | 100%
Nc1nc2c(ncn2CC#CCO)c(=O)[nH]1 | IIIB | cytopathic effect / trypan blue | 100 µM | 0%

Blank or dashed fields: not listed here. Inhibition is in % at the dose shown (toxicity tests: loss of growth or viability).